Compound potency records, mixed from different reports. Data source: NIAID ChemDB in PubChem.

All rows: enzyme or target tests

An empty or dashed field is not shown. ICn: concentration for n% inhibition. Neighbouring rows are from separate reports. Inhibition is in % at the dose shown (toxicity tests: loss of growth or viability).

| structure | protein | agent | strain or isolate | read by | read-out | dose | result |
|---|---|---|---|---|---|---|---|
| Nc1nc(-c2ccc(NC(=O)CCN(C(=O)c3cccnc3)C3CCc4ccccc43)cc2)cs1 | Helicase-primase | Herpes simplex virus 1 | F |  | IC50 |  | 10 µM |
| O=c1[nH]c(=O)n([C@@H]2O[C@H](CO)[C@@H](O)[C@@H]2F)cc1/C=C/Br | DTHD kinase | Herpes simplex virus 2 | 333 |  | Ki |  | 10.26 µM |
| O=c1[nH]cnc2c1ncn2[C@H]1CC[C@@H](COP(=O)(O)O)O1 | DNA polymerase | Herpes simplex virus 1 |  |  | inhibition | 2000 µM | 83.6% |
| C/C(=N\NC(=S)NNC(=S)Nc1cc(Cl)c(Cl)cc1Cl)c1ccccn1 | Ribonucleotide reductase | Herpes simplex virus 1 |  |  | IC50 |  | >5 µM |
| CC[C@@H](N(C)C(=O)[C@@H](NC(=O)[C@@H](CC(=O)[C@@H](NC(=O)[C@H](C(C)C)N(C)C(=O)[C@H](C)CC1CCCCC1)C(C)(C)C)CC(=O)C(C)(C)C)C1(C(=O)O)CCCC1)C(C)(C)C | Ribonucleotide reductase | Herpes simplex virus 1 |  |  | IC50 |  | 0.147 µM |
| C/C=C/c1cn([C@@H]2O[C@H](CO)[C@@H](O)[C@@H]2O)c(=O)[nH]c1=O | Thymidine kinase | Herpes simplex virus 1 | C42 |  | inhibition | 10 µM | 40% |
| Cc1c(NC(=O)OC(C)(C)C)ccc2nc(N(CCc3ccccc3)C(=O)NCc3cccnc3)oc(=O)c12 | Protease | Herpes simplex virus 1 |  |  | IC50 |  | 0.7 µM |
| C[C@@H](c1ccccc1)N(CC(=O)Nc1ccc(-c2csc(N)n2)cc1)C(=O)c1ccncc1 | Primase | Herpes simplex virus 1 |  |  | IC50 |  | 0.15 µM |
| Nc1nc(-c2ccc(Cl)cc2)cs1 | Primase | Herpes simplex virus 1 | UL5/8/52 |  | IC50 |  | 20 µM |
| Cc1cn([C@@H]2O[C@H](CO)[C@@H](O)[C@@H]2F)c(=O)nc1N | Thymidine kinase | Herpes simplex virus 2 | G |  | inhibition | 200 µM | 0% |
| C#C[C@H]1O[C@@H](n2cc(C)c(=O)[nH]c2=O)C[C@@H]1O | Thymidine kinase | Herpes simplex virus 1 | SC16 |  | IC50 |  | 5 µM |
| Cc1c(NC(=O)OC(C)(C)C)ccc2nc(N(CC(C)(C)C)C(=O)N(C)CCc3ccccn3)oc(=O)c12 | Protease | Herpes simplex virus 1 |  |  | IC50 |  | >20 µM |
| C[C@H](NC(=O)OCc1ccccc1)C(=O)Nc1csc2c(=O)oc([C@H](C)NC(=O)OCc3ccccc3)nc12 | HSV-2 protease | Herpes simplex virus 2 |  | HPLC | IC50 |  | 10 µM |
| CC[C@@H](NC(=O)[C@@H](NC(=O)[C@@H](CC(=O)[C@@H](NC(=O)NC1[C@H](C)CCC[C@@H]1C)C(C)(C)C)CC(=O)N1CCCC1)C1(C(=O)O)CCCC1)C(C)(C)C | Ribonucleotide reductase | Herpes simplex virus 2 |  | radioligand binding / binding | IC50 |  | <0.001 µM |
| Nc1nc2c(ncn2CCC(O)CO)c(=O)[nH]1 | DNA polymerase | Herpes simplex virus 1 |  |  | Ki |  | 1.5 µM |
| Nc1nc(-c2ccc(NC(=O)CNCc3cccc(F)c3)cc2)cs1 | Helicase-primase | Herpes simplex virus 1 | KOS |  | IC50 |  | 0.5 µM |
| C#Cc1cn([C@@H]2O[C@H](CO)[C@@H](O)[C@@H]2F)c(=O)nc1N | Thymidine kinase | Herpes simplex virus 1 | F |  | inhibition | 200 µM | 47.7% |
| O=C(NCc1ccc(Cl)cc1)c1c[nH]c2c(F)cccc2c1=O | Herpesvirus DNA polymerase | Herpes simplex virus 1 |  |  | Ki |  | 2.9 µM |
| Cc1c(NC(=O)OC(C)(C)C)ccc2nc(N(CC(C)C)C(=O)NCc3ccncc3)oc(=O)c12 | Protease | Herpes simplex virus 1 |  |  | IC50 |  | >20 µM |
| NC1=NC2C(C=CN2CC(CO)CCOP(=O)(O)OP(=O)(O)OP(=O)(O)O)C(=O)N1 | Polymerase | Herpes simplex virus 2 |  |  | Ki |  | 2.2 µM |
| Cc1cn([C@@H]2O[C@H](CO)[C@@H](O)[C@@H]2F)c(=O)[nH]c1=O | DTHD kinase | Herpes simplex virus 1 | KOS |  | Ki |  | 0.59 µM |
| S=C(N/N=C/c1ccccn1)NNC(=S)Nc1ccccc1Cl | Ribonucleotide reductase | Herpes simplex virus 1 |  |  | IC50 |  | <5 µM |
| CC(C)(C)OC(=O)[C@H](Cc1ccccc1)NC(=O)Nc1ccc(-c2csc(N)n2)cc1 | Helicase-primase | Herpes simplex virus 1 | KOS |  | IC50 |  | 0.07 µM |
| O=c1[nH]c(=O)n([C@@H]2O[C@H](CO)[C@@H](O)[C@@H]2F)cc1I | DNA polymerase | Herpes simplex virus 1 |  |  | Ki |  | 0.68 µM |
| Nc1nc(N)c2nnn([C@@H]3O[C@H](COP(=O)(O)O)[C@@H](O)[C@H]3O)c2n1 | DNA polymerase | Herpes simplex virus 1 |  |  | inhibition | 2000 µM | 96.6% |
| C/C(=N\NC(=S)NNC(=S)Nc1cccc(C#N)c1)c1ccccn1 | Ribonucleotide reductase | Herpes simplex virus 1 |  |  | IC50 |  | >5 µM |
| Nc1nc(-c2ccc(NC(=O)CN(CC3CCCCC3)C(=O)COc3ccccn3)cc2)cs1 | Helicase-primase | Herpes simplex virus 1 | KOS |  | IC50 |  | 0.77 µM |
| C/C(=N\NC(=S)NNC(=S)Nc1ccc(C)cc1)c1ccccn1 | Ribonucleotide reductase | Herpes simplex virus 1 |  |  | IC50 |  | >5 µM |
| CC[C@@H](NC(=O)[C@@H](NC(=O)[C@@H](CC(=O)[C@@H](NC(=O)NC1[C@H](C)CCC[C@@H]1C)C(C)(C)C)CC(=O)C(C)(C)C)C1(C(=O)O)CCCC1)C(C)(C)C | Ribonucleotide reductase | Herpes simplex virus 2 |  | radioligand binding / binding | IC50 |  | <0.001 µM |
| O=c1[nH]c(=O)n([C@@H]2O[C@H](CO)[C@@H](O)[C@@H]2O)cc1/C=C/Br | DTHD kinase | Herpes simplex virus 2 | 333 |  | Ki |  | 54.67 µM |
| CC[C@H](C)[C@H](NC(=O)[C@H](C(C)C)N(C)C(=O)CCc1ccccc1)C(=O)N[C@@H](CC(=O)N1CCCC1)C(=O)N[C@H](C(=O)N[C@@H](CC(C)C)C(=O)O)C(C)(C)C(=O)O | Ribonucleotide reductase | Herpes simplex virus 1 |  |  | IC50 |  | 0.28 µM |
| Nc1nc2c(ncn2COCCOP(=O)(O)OP(=O)(O)OP(=O)(O)O)c(=O)[nH]1 | DNA polymerase | Herpes simplex virus 2 |  |  | Ki |  | 0.07 µM |
| CCN(C(=O)N(C)CCc1cccnc1)c1nc2ccc(NC(=O)OC(C)(C)C)c(C)c2c(=O)o1 | Protease | Herpes simplex virus 1 |  |  | IC50 |  | 0.2 µM |
| Nc1nc(N)c2ncn([C@@H]3O[C@H](COP(=O)(O)O)[C@@H](O)[C@H]3O)c2n1 | DNA polymerase | Herpes simplex virus 1 |  |  | inhibition | 2000 µM | 66.6% |
| Cc1c(NC(=O)OC(C)(C)C)ccc2nc(N(CCc3ccccc3)C(=O)NCc3ccccn3)oc(=O)c12 | Protease | Herpes simplex virus 1 |  |  | IC50 |  | 0.5 µM |
| C[C@H](c1ccccc1)N(CC(=O)Nc1ccc(-c2csc(N)n2)cc1)C(=O)Cc1ccncc1 | Helicase-primase | Herpes simplex virus 1 | KOS |  | IC50 |  | 0.98 µM |
| Nc1nc2c(ncn2[C@@H]2C[C@H](COP(=O)(O)OP(=O)(O)OP(=O)(O)O)[C@H]2CO)c(=O)[nH]1 | DNA polymerase | Herpes simplex virus 1 | KOS |  | Ki |  | 0.004 µM |
| Cc1c(NC(=O)OC(C)(C)C)ccc2nc(NCC(Cc3ccccc3)C(=O)N(C)c3ccccn3)oc(=O)c12 | Protease | Herpes simplex virus 1 |  |  | IC50 |  | 1 µM |
| O=c1[nH]c(=O)n([C@@H]2O[C@H](CO)[C@@H](O)[C@@H]2O)cc1/C=C/Br | Thymidine kinase | Herpes simplex virus 1 | C42 |  | inhibition | 5 µM | 61% |
| Nc1nc(-c2ccc(NC(=O)CCN(Cc3ccccc3)C(=O)C3Cc4ccccc4C3)cc2)cs1 | Helicase-primase | Herpes simplex virus 1 | F |  | IC50 |  | 15 µM |
| COc1ccc(S(=O)(=O)NC[C@H]2O[C@@H](n3cc(C)c(=O)[nH]c3=O)C[C@@H]2O)cc1 | Thymidine kinase | Herpes simplex virus 2 |  |  | IC50 |  | 116 µM |
| C/C=C/c1cn([C@H]2C[C@H](O)[C@@H](CO)O2)c(=O)[nH]c1=O | Thymidine kinase | Herpes simplex virus 1 | 91075 |  | inhibition | 10 µM | 5% |
| C[C@H](NC(=O)NCc1ccccc1)c1nc2ccsc2c(=O)o1 | HSV-2 protease | Herpes simplex virus 2 |  | HPLC | IC50 |  | >10 µM |
| Cc1cn([C@@H]2O[C@H](CO)[C@@H](O)[C@@H]2Cl)c(=O)nc1N | DTHD kinase | Herpes simplex virus 1 | KOS |  | Ki |  | 15.88 µM |
| Cc1c(NC(=O)OC(C)(C)C)ccc2nc(N3CCCC3(OCc3ccccc3)C(=O)N(C)CCc3ccccn3)oc(=O)c12 | Protease | Herpes simplex virus 1 |  |  | IC50 |  | >10 µM |
| CCC(=O)NC[C@H]1O[C@@H](n2cc(I)c(=O)[nH]c2=O)C[C@@H]1O | Thymidine kinase | Herpes simplex virus 2 |  |  | IC50 |  | 21 µM |
| Nc1nc2c(ncn2[C@@H]2O[C@H](COP(=O)(O)OP(=O)(O)O)[C@@H](O)[C@H]2O)c(=O)[nH]1 | DNA polymerase | Herpes simplex virus 1 |  |  | inhibition | 2000 µM | 96.9% |
| CCCCC(=O)NC[C@H]1O[C@@H](n2cc(I)c(=O)[nH]c2=O)C[C@@H]1O | Thymidine kinase | Herpes simplex virus 2 |  |  | IC50 |  | 2 µM |
| O=c1[nH]c(=O)n([C@@H]2O[C@H](CO)[C@@H](O)[C@@H]2F)cc1/C=C/I | Thymidine kinase | Herpes simplex virus 2 | G |  | inhibition | 200 µM | 3.8% |
| CC[C@H](C)[C@H](NC(=O)[C@H](C(C)C)N(C)C(=O)CCc1ccccc1)C(=O)N[C@@H](CC(=O)N1CCCC1)C(=O)N[C@@H](CC(=O)O)C(=O)NCCCC1CCCCC1 | Ribonucleotide reductase | Herpes simplex virus 1 |  |  | IC50 |  | 1.8 µM |

For reference, 5 entries again:

structure,protein,agent,strain or isolate,read by,read-out,dose,result
CC[C@@H](N(C)C(=O)[C@@H](NC(=O)[C@@H](CC(=O)[C@@H](NC(=O)[C@H](C(C)C)N(C)C(=O)[C@H](C)CC1CCCCC1)C(C)(C)C)CC(=O)C(C)(C)C)C1(C(=O)O)CCCC1)C(C)(C)C,Ribonucleotide reductase,Herpes simplex virus 1,,,IC50,,0.147 µM
C/C=C/c1cn([C@@H]2O[C@H](CO)[C@@H](O)[C@@H]2O)c(=O)[nH]c1=O,Thymidine kinase,Herpes simplex virus 1,C42,,inhibition,10 µM,40%
COc1ccc(S(=O)(=O)NC[C@H]2O[C@@H](n3cc(C)c(=O)[nH]c3=O)C[C@@H]2O)cc1,Thymidine kinase,Herpes simplex virus 2,,,IC50,,116 µM
CC[C@H](C)[C@H](NC(=O)[C@H](C(C)C)N(C)C(=O)CCc1ccccc1)C(=O)N[C@@H](CC(=O)N1CCCC1)C(=O)N[C@@H](CC(=O)O)C(=O)NCCCC1CCCCC1,Ribonucleotide reductase,Herpes simplex virus 1,,,IC50,,1.8 µM
O=c1[nH]c(=O)n([C@@H]2O[C@H](CO)[C@@H](O)[C@@H]2F)cc1/C=C/I,Thymidine kinase,Herpes simplex virus 2,G,,inhibition,200 µM,3.8%